Target: Neuraminidase (NA) of A/Washington/01/2007, NA-WT (Influenza A virus, UniProt A7UPN3)
Test: biochemical

CCOC(=O)C1=C[C@@H](OC(CC)CC)[C@H](NC(C)=O)[C@@H](N)C1 [Oseltamivir, oseltamivir]
IC50: 0.07 ± 0.02 nM
